The list shows a part of the results, in another mix than the full data. The source made the active and inactive calls.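 The calls were made as follows: active = inhibition reaching at least a set limit at 20 µM in the primary screen (cut at about 59% in these data); inactive = the rest.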

This test has as its system glucose-6-phosphate dehydrogenase-6-phosphogluconolactonase (Plasmodium falciparum 3D7). As to the kind of experiment: inhibition of malaria parasite G6PD (PfGluPho) – biochemical, fluorescence intensity, uHTS, primary screen (AID 504690).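 Also: 0% = DMSO wells with substrate and 100% = DMSO wells lacking glucose-6-phosphate.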 The settings on record: PfGluPho enzyme, NADPH resazurin-diaphorase fluorescence; at 20 µM; active compounds read high. On the technique in general: Alamar Blue is a resazurin reagent that responds to reducing activity.
As to `CCOC(=O)C(CC)C1=NC(C)(C)Cc2ccccc21.O=[N+]([O-])c1cc([N+](=O)[O-])c(O)c([N+](=O)[O-])c1` (stereo unspecified), the inhibition (as a rule, the relative decrease from the control value, in per cent) is inactive: -12.2%.

On to `CC1=C2N=C(C=C3N=C(C(C)=C4[N-][C@@](C)([C@@H]5N=C1[C@](C)(CCC(=O)NC[C@@H](C)OP(=O)([O-])O[C@H]1[C@@H](O)[C@@H](n6cnc7cc(C)c(C)cc76)O[C@@H]1CO)[C@H]5CC(N)=O)[C@@](C)(CC(N)=O)[C@@H]4CCC(N)=O)[C@@](C)(CC(N)=O)[C@@H]3CCC(N)=O)C(C)(C)[C@@H]2CCC(N)=O.[C-]#N.[Co+3]`, for which the inhibition is inactive: -2.21%.

On to `O=[N+]([O-])c1cc([N+](=O)[O-])c(Nc2nnnn2CCO)c([N+](=O)[O-])c1`, for which the inhibition was inactive: -4.7%.

For the compound `CCCOc1ccc(NP(C)(=O)Oc2ccc(Cl)cc2)cc1` (stereo unspecified), the inhibition was inactive: 6.21%.

On to `CP(=O)(Nc1ccc(SC(F)(F)F)cc1)Oc1ccccc1` (stereo unspecified), for which the inhibition is inactive: 6.04%.

Consider `CN1CCCCC1COC(=O)C1(O)c2ccccc2CCc2ccccc21` (stereo unspecified), for which the inhibition is inactive: 3.36%.

Regarding `COc1ccccc1OP(C)(=O)Nc1c(C)cccc1C` (stereo unspecified), the inhibition was inactive: -2.33%.

Consider `O=[N+]([O-])c1cc([N+](=O)[O-])c(-n2nnc3ccccc32)c([N+](=O)[O-])c1`, for which the inhibition was inactive: -28%.

Take `Cc1nc2ccc3ccccc3c2s1.O=[N+]([O-])c1cc([N+](=O)[O-])c(O)c([N+](=O)[O-])c1`: the inhibition is inactive: 8.8%.

With `O=[N+]([O-])c1cc([N+](=O)[O-])c(-c2cnn(-c3ccccc3)c2)c([N+](=O)[O-])c1`, the inhibition was inactive: 33%.

On to `CCOC(=O)c1ccc(NP(C)(=O)Oc2cc(C)cc(C)c2)cc1` (stereo unspecified), for which the inhibition is inactive: 1.17%.

Take `Cc1cc(C)cc(OP(C)(=O)Nc2ccc(C)cc2C)c1` (stereo unspecified): the inhibition was inactive: -13.8%.

For `COc1ccccc1OP(C)(=O)Nc1cccc(Br)c1` (stereo unspecified), the inhibition is inactive: -3.2%.

Take `Cc1ccc(C)c(NP(C)(=O)Oc2ccccc2)c1` (stereo unspecified): the inhibition was inactive: -12.2%.

Regarding `Cc1cc(C)cc(OP(C)(=O)Nc2ccccn2)c1` (stereo unspecified), the inhibition was inactive: -8.36%.

`CP(=O)(Nc1cccc(Br)c1)Oc1ccccc1` (stereo unspecified): the inhibition was inactive: -5.61%.

Take `O=C(O)c1cccc(Nc2c([N+](=O)[O-])cc([N+](=O)[O-])cc2[N+](=O)[O-])c1`: the inhibition was inactive: -26.3%.

`CC1=NCCc2c1[nH]c1ccccc21.O=[N+]([O-])c1cc([N+](=O)[O-])c(O)c([N+](=O)[O-])c1`: the inhibition was inactive: -7.89%.

`O=[N+]([O-])c1ccc2c(c1)C=Nc1ccccc1O2`: the inhibition is inactive: 41.7%.

Take `Cc1cccc(C)c1OP(C)(N)=O` (stereo unspecified): the inhibition was inactive: -9.63%.

For the compound `CC(C)(C)c1ccc(OP(C)(=O)Nc2ccc(SC(F)(F)F)cc2)cc1` (stereo unspecified), the inhibition was inactive: 7.29%.

For the compound `O=[N+]([O-])c1cc([N+](=O)[O-])c(Nc2cccnc2)c([N+](=O)[O-])c1`, the inhibition is inactive: 29.5%.

As for `Cc1cc(C)cc(OP(C)(N)=O)c1` (stereo unspecified), the inhibition is inactive: -5.87%.

As for `COc1ccc(OP(C)(=O)Nc2cccc(F)c2)cc1` (stereo unspecified), the inhibition is inactive: -11.3%.

`COc1ccccc1OP(C)(=O)Nc1cc(Cl)ccc1C` (stereo unspecified): the inhibition is inactive: 15.7%.

Regarding `Cc1ccc(NP(C)(=O)Oc2ccccc2)c(C)c1` (stereo unspecified), the inhibition is inactive: -4.17%.

With `COc1ccccc1OP(C)(=O)Nc1ccc(C)cc1` (stereo unspecified), the inhibition was inactive: -11.1%.

With `CCOC(=O)c1ccc(NP(C)(=O)Oc2ccccc2)cc1` (stereo unspecified), the inhibition was inactive: -0.56%.

On to `CCN(CC)CCCOC(=O)C(O)(c1ccccc1)c1ccccc1`, for which the inhibition was inactive: -1.93%.

Take `Cc1cc(C)cc(OP(C)(=O)Nc2ccc(SC(F)(F)F)cc2)c1` (stereo unspecified): the inhibition was inactive: 7.91%.

As for `CP(=O)(NC(=O)Nc1ccccc1)Oc1ccccc1` (stereo unspecified), the inhibition is inactive: 4.19%.

On to `CCc1ccc(OP(C)(=O)N2CCN(c3ccc([N+](=O)[O-])cc3)CC2)cc1` (stereo unspecified), for which the inhibition is inactive: 17.7%.

In the case of `CP(=O)(Oc1ccccc1)OC(c1ccccc1)C(F)(F)F` (stereo unspecified), the inhibition is inactive: 2.59%.

Consider `CP(=O)(Nc1ccc(SC(F)(F)F)cc1)Oc1ccc(Cl)cc1` (stereo unspecified), for which the inhibition was inactive: 9.98%.

For `Cc1cccc(C)c1OP(C)(=O)Nc1ccc(SC(F)(F)F)cc1` (stereo unspecified), the inhibition was inactive: -12.5%.

On to `Cc1ccc(Nc2c([N+](=O)[O-])cc([N+](=O)[O-])cc2[N+](=O)[O-])cc1`, for which the inhibition was inactive: 22.9%.

Consider `CP(=O)(Nc1ccccn1)Oc1ccc(Cl)cc1` (stereo unspecified), for which the inhibition is inactive: 9.2%.

On to `O=[N+]([O-])c1cc([N+](=O)[O-])c(O)c([N+](=O)[O-])c1.c1ccc(Oc2ccncc2)cc1`, for which the inhibition was inactive: -27.7%.

Take `CCOC(=O)c1ccc(NP(C)(=O)Oc2ccc(OC)cc2)cc1` (stereo unspecified): the inhibition is inactive: -10.9%.

As to `CCOP(C)(=S)SCC(=O)NC(C)C(=O)O` (stereo unspecified), the inhibition is inactive: -8.76%.

Consider `CP(=O)(Nc1ccccc1Br)Oc1ccccc1` (stereo unspecified), for which the inhibition is inactive: 11.2%.

As to `COc1ccccc1OP(C)(=O)Nc1ccccc1` (stereo unspecified), the inhibition was inactive: -0.55%.

With `CP(=S)(Nn1cnnc1)Oc1ccccc1` (stereo unspecified), the inhibition is inactive: -8.67%.

Consider `CCOC(=O)c1ccc(NP(C)(=O)Oc2ccc(Cl)cc2)cc1` (stereo unspecified), for which the inhibition is inactive: 5.13%.

Consider `CP(=O)(OC12CC3CC(CC(C3)C1)C2)OC12CC3CC(CC(C3)C1)C2`, for which the inhibition is inactive: 8.92%.

For the compound `Nc1ccc2c(ccc3cccnc32)n1.O=[N+]([O-])c1cc([N+](=O)[O-])c(O)c([N+](=O)[O-])c1`, the inhibition is inactive: 0.36%.

For the compound `O=C(OCCCN1CCCC1)C(O)(c1ccccc1)C1CCCCC1` (stereo unspecified), the inhibition is inactive: 11.1%.

On to `COc1ccccc1OP(C)(=O)Nc1c(C)n(C)n(-c2ccccc2)c1=O` (stereo unspecified), for which the inhibition is inactive: -12.4%.

Regarding `CCc1ccc(OP(C)(=O)Nc2cccnc2)cc1` (stereo unspecified), the inhibition was inactive: 9.27%.

Consider `CP(=O)(Oc1ccccc1)N1CCOC1=O` (stereo unspecified), for which the inhibition is inactive: -1.41%.

As to `COc1ccc(OP(C)(=O)Nc2ccc(Br)cc2)cc1` (stereo unspecified), the inhibition is inactive: -6.95%.

For `CCN(CC)CC(O)COC(=O)C(O)(c1ccccc1)C1CCCCC1` (stereo unspecified), the inhibition was inactive: 0.63%.

In the case of `CN(C)C(=O)c1c([N+](=O)[O-])cc([N+](=O)[O-])cc1[N+](=O)[O-]`, the inhibition is inactive: 48.1%.

On to `COc1ccccc1OP(C)(=O)Nc1ccccc1Br` (stereo unspecified), for which the inhibition was inactive: 0.1%.

For the compound `CC(C)(C)c1ccc(OP(C)(=O)O)cc1`, the inhibition is inactive: -4.97%.

Turning to `CP(=O)(Nc1ccc(Cl)cc1)Oc1ccc(F)cc1` (stereo unspecified), the inhibition was inactive: -8.07%.

Source of the values: PubChem BioAssay AID504690 (Sanford-Burnham Center for Chemical Genomics, 2011).
